The text below walks through data of article PMC6922452 (PLoS Pathogens, 2019).

The chains behind the UniProt entries cited, without tags or fusion partners. Residues count along the entry.
UniProt P04925, 23-230: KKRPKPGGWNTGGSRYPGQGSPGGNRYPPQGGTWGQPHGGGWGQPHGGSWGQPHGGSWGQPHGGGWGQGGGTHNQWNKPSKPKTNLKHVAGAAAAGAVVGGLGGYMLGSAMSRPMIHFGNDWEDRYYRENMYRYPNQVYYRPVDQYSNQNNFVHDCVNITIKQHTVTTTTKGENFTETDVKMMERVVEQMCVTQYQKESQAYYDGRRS

The target in this assay is recombinant mouse prion protein MoPrP(23–230) (mouse, UniProt P04925). The assay can be described thus: ELISA. To be noted: both partners purified. Background: An ELISA detects its analyte on a solid surface through an enzyme-linked reagent.

B1: anti-PrP monoclonal antibody POM1 (antibody, V domains shown)
VH: QVQLQQSGTELVMPGASVKMSCKASGYTFTDYWMHWVKQRPGQGLEWIGSIDPSDSYTSHNEKFKGKATLTVDESSSTAYMQLSSLTSEDSAVYFCSRSGYGYYAMEYWGQGTSVTVSS
VL: DIVLTQSPAILSVSPGERVSFSCRASQNIGTSIHWYQQRTNESPRLIIKYASESISGIPSRFSGSGSGTDFTLSINSVESEDIADYYCQQSNTWPYTFGGGTKLELK
For the molecule B1, the binding result was “binds”.
